Compound potency records, mixed from different reports. Data source: NIAID ChemDB in PubChem.

Shared fields: growth or infection tests; organism: Mycobacterium avium complex

Two numbers with a dash give a range or band. Neighbouring rows are from separate reports. A number after MIC or MFC names an inhibition level or a share of isolates.

| compound | measure | strain or isolate | value |
|---|---|---|---|
| CN[C@@H]1[C@H](O[C@H]2[C@H](O[C@H]3[C@H](O)[C@@H](O)[C@H](N=C(N)N)[C@@H](O)[C@@H]3N=C(N)N)O[C@@H](C)[C@]2(O)C=O)O[C@@H](CO)[C@H](O)[C@H]1O | MBC | ATCC 35718 | 8 µg/mL |
| CC[C@H]1OC(=O)[C@H](C)[C@@H](OC2C[C@@](C)(OC)[C@@H](O)[C@H](C)O2)[C@H](C)[C@@H](O[C@@H]2O[C@H](C)C[C@H](N(C)C)[C@H]2O)C(C)(O)C[C@@H](C)/C(=N\OCCCCCc2ccccc2)[C@H](C)[C@@H](O)[C@]1(C)O | MIC | 20039 | 3.13 µg/mL |
| COc1cccc2c1[n+]([O-])c1cccc(O)c1[n+]2[O-] | MIC | 100 | 4 µg/mL |
| O=C1c2cc(F)ccc2-n2c1nc1ccccc1c2=O | MIC | 19075 | 0.25 µg/mL |
| CO[C@H]1/C=C/O[C@@]2(C)Oc3c(C)c(O)c4c(O)c(c5c(c4c3C2=O)NC2(CCN(CC(C)C)CC2)N=5)=NC(=O)/C(C)=C\C=C\[C@H](C)[C@H](O)[C@@H](C)[C@@H](O)[C@@H](C)[C@H](OC(C)=O)[C@@H]1C | MIC | N-269 (HIV-) | 0.2 µg/mL |
| O=C1c2cc(Cl)ccc2-n2c1nc1ncccc1c2=O | MIC | 19075 | 5 µg/mL |
| NNC(=O)c1ccncc1 | MIC | 11012 | 20–25 µg/mL |
| O=C1c2cc(F)ccc2-n2c1nc1ccc(F)cc1c2=O | MIC | 19075 | 0.13 µg/mL |
| NC[C@@H]1O[C@H](O[C@H]2[C@@H](O)[C@H](O[C@@H]3[C@@H](O)[C@H](N)C[C@H](N)[C@H]3O[C@H]3O[C@H](CN)[C@@H](O)[C@H](O)[C@H]3N)O[C@@H]2CO)[C@H](N)[C@@H](O)[C@@H]1O | MIC50 | 25 isolates | 32 µg/mL |
| O=C(N1CCC(CN=c2cc3n(-c4ccc(Cl)cc4)c4ccccc4nc-3cc2Nc2ccc(Cl)cc2)CC1)N1CC1 | MIC | 101 | 16 µg/mL |
| CCO/N=C1\[C@H](C)CC(C)(O)[C@H](O[C@@H]2O[C@H](C)C[C@H](N(C)C)[C@H]2O)[C@@H](C)[C@H](OC2C[C@@](C)(OC)[C@@H](O)[C@H](C)O2)[C@@H](C)C(=O)O[C@H](CC)[C@@](C)(O)[C@H](O)[C@H]1C | MIC | 20039 | 3.13 µg/mL |
| CC(C)N=C(N)/N=C(\N)NOCCCOc1cc(Cl)c(Cl)cc1Cl | MIC | 1102 | 32 µg/mL |
| Nc1ccc(S(=O)(=O)c2ccc(N)cc2)cc1 | MIC | DW17 | 64 µg/mL |
| NC[C@H]1O[C@H](O[C@H]2[C@H](O)[C@@H](O[C@H]3O[C@H](CO)[C@@H](O)[C@H](N)[C@H]3O)[C@H](N)C[C@@H]2N)[C@H](O)[C@@H](O)[C@@H]1O | MIC | CIPT 140310003 (rough) | 5 µg/mL |
| NCC[C@H](O)C(=O)N[C@@H]1C[C@H](N)[C@@H](O[C@H]2O[C@H](CN)[C@@H](O)[C@H](O)[C@H]2O)[C@H](O)[C@H]1O[C@H]1O[C@H](CO)[C@@H](O)[C@H](N)[C@H]1O | MBC | ATCC 35718 | 32 µg/mL |
| CC[C@H]1OC(=O)[C@H](C)[C@@H](O[C@H]2C[C@@](C)(OC)[C@@H](O)[C@H](C)O2)[C@H](C)[C@@H](O[C@@H]2O[C@H](C)C[C@H](N(C)C)[C@H]2O)[C@](C)(OC)C[C@@H](C)C(=O)[C@H](C)[C@@H](O)[C@]1(C)O | MIC | 20039 | 0.78 µg/mL |
| CC[C@H]1OC(=O)[C@H](C)[C@@H](O[C@H]2C[C@@](C)(OC)[C@@H](OC(C)=O)[C@H](C)O2)[C@H](C)[C@@H](O[C@@H]2O[C@H](C)C[C@H](N(C)C)[C@H]2O)C(C)(O)C[C@@H](C)/C(=N\OCCSc2ccccc2)[C@H](C)[C@@H](O)[C@]1(C)O | MIC | 20039 (clarithromycin-susceptible) | 1.56 µg/mL |
| CCNC(=O)[C@@H](NC(=O)Cc1ccccc1)[C@@H]1N[C@@H](C(=O)NCCNC(=O)[C@@H]2N[C@@H]([C@H](NC(=O)Cc3ccccc3)C(=O)NCC)SC2(C)C)C(C)(C)S1 | MIC | CIPT 140310003 (rough) | 30 µg/mL |
| CO[C@H]1/C=C/O[C@@]2(C)Oc3c(C)c(O)c4c(O)c(c5c(c4c3C2=O)NC2(CCN(CC(C)C)CC2)N=5)=NC(=O)/C(C)=C\C=C\[C@H](C)[C@H](O)[C@@H](C)[C@@H](O)[C@@H](C)[C@H](OC(C)=O)[C@@H]1C | MIC | LA-1 | 2 µg/mL |
| CO[C@H]1/C=C/O[C@@]2(C)Oc3c(C)c(O)c4c(O)c(c5c(c4c3C2=O)NC2(CCN(CC(C)C)CC2)N=5)=NC(=O)/C(C)=C\C=C\[C@H](C)[C@H](O)[C@@H](C)[C@@H](O)[C@@H](C)[C@H](OC(C)=O)[C@@H]1C | MIC | CIPT 140310005 | 0.1 µg/mL |
| CO[C@H]1/C=C/O[C@@]2(C)Oc3c(C)c(O)c4c(O)c(c5c(c4c3C2=O)NC2(CCN(CC(C)C)CC2)N=5)=NC(=O)/C(C)=C\C=C\[C@H](C)[C@H](O)[C@@H](C)[C@@H](O)[C@@H](C)[C@H](OC(C)=O)[C@@H]1C | MBC | 3009-4 | 32 µg/mL |
| CC[C@H]1OC(=O)[C@H](C)[C@@H](OC2C[C@@](C)(OC)[C@@H](O)[C@H](C)O2)[C@H](C)[C@@H](O[C@@H]2O[C@H](C)C[C@H](N(C)C)[C@H]2O)C(C)(O)C[C@@H](C)/C(=N\OCCCC2CCCCC2)[C@H](C)[C@@H](O)[C@]1(C)O | MIC | 20092 | 12.5 µg/mL |
| C[C@@H]1CN(c2c(F)c(N)c3c(=O)c(C(=O)O)cn(C4CC4)c3c2F)C[C@H](C)N1 | MIC | N-979 (HIV+) | 0.25 µg/mL |
| CCCCCCCCCCO/N=C1\[C@H](C)CC(C)(O)[C@H](O[C@@H]2O[C@H](C)C[C@H](N(C)C)[C@H]2O)[C@@H](C)[C@H](OC2C[C@@](C)(OC)[C@@H](O)[C@H](C)O2)[C@@H](C)C(=O)O[C@H](CC)[C@@](C)(O)[C@H](O)[C@H]1C | MIC | 20096 | 6.25 µg/mL |
| CO[C@H]1/C=C/O[C@@]2(C)Oc3c(C)c(O)c4c(=O)c(c5oc6cc(N7CCN(CC(C)C)CC7)cc(=O)c6nc5c4c3=C2O)NC(=O)/C(C)=C\C=C\[C@H](C)[C@H](O)[C@@H](C)[C@@H](O)[C@@H](C)[C@H](OC(C)=O)[C@@H]1C | MIC | N-976 (HIV+) | 0.1 µg/mL |
| O=C1c2ccc(Cl)cc2-n2c1nc1ccccc1c2=O | MIC | 19075 | 0.13 µg/mL |
| CCCCO/N=C1\[C@H](C)CC(C)(O)[C@H](O[C@@H]2O[C@H](C)C[C@H](N(C)C)[C@H]2O)[C@@H](C)[C@H](O[C@H]2C[C@@](C)(OC)[C@@H](OC(C)=O)[C@H](C)O2)[C@@H](C)C(=O)O[C@H](CC)[C@@](C)(O)[C@H](O)[C@H]1C | MIC | 20039 (clarithromycin-susceptible) | >50 µg/mL |
| CC[C@H]1OC(=O)[C@H](C)[C@@H](O[C@H]2C[C@@](C)(OC)[C@@H](O)[C@H](C)O2)[C@H](C)[C@@H](O[C@@H]2O[C@H](C)C[C@H](N(C)C)[C@H]2O)[C@](C)(OC)C[C@@H](C)C(=O)[C@H](C)[C@@H](O)[C@]1(C)O | MIC | N-981 (HIV+) | 2 µg/mL |
| CC(C)NC(=O)N1CCC(CN=c2cc3n(-c4ccc(Cl)cc4)c4ccccc4nc-3cc2Nc2ccc(Cl)cc2)CC1 | MIC | 100 | ≥16 µg/mL |
| CC[C@H]1OC(=O)[C@H](C)[C@@H](O[C@H]2C[C@@](C)(OC)[C@@H](OC(C)=O)[C@H](C)O2)[C@H](C)[C@@H](O[C@@H]2O[C@H](C)C[C@H](N(C)C)[C@H]2OC(=O)NNCCc2ccccc2)C(C)(O)C[C@@H](C)/C(=N\OCCCC2CCCCC2)[C@H](C)[C@@H](O)[C@]1(C)O | MIC | 20092 (clarithromycin-resistant) | 1.56 µg/mL |
| CC1(C)S[C@@H]2[C@H](NC(=O)[C@H](C(=O)[O-])c3ccsc3)C(=O)N2[C@H]1C(=O)[O-].[Na+].[Na+] | MIC | CIPT 140310012 | 50 µg/mL |
| CC[C@H]1OC(=O)[C@H](C)[C@@H](OC2C[C@@](C)(OC)[C@@H](O)[C@H](C)O2)[C@H](C)[C@@H](O[C@@H]2O[C@H](C)C[C@H](N(C)C)[C@H]2O)C(C)(O)C[C@@H](C)/C(=N\OCCc2cccs2)[C@H](C)[C@@H](O)[C@]1(C)O | MIC | 20096 | 25 µg/mL |
| CCCCCCCCc1ccc2c(c1)C(=O)c1nc3ccncc3c(=O)n1-2 | MIC | 19075 | 0.06 µg/mL |
| COc1ccc(/C(C)=N/NC(N)=S)cc1 | MIC | 109 | 0.125 µg/mL |
| C[C@@H]1CN(c2c(F)c(N)c3c(=O)c(C(=O)O)cn(C4CC4)c3c2F)C[C@H](C)N1 | MBC | Isolate 90-0731 | 2 µg/mL |
| CCCCCCCCCCCCO/N=C1\[C@H](C)CC(C)(O)[C@H](O[C@@H]2O[C@H](C)C[C@H](N(C)C)[C@H]2O)[C@@H](C)[C@H](O[C@H]2C[C@@](C)(OC)[C@@H](OC(C)=O)[C@H](C)O2)[C@@H](C)C(=O)O[C@H](CC)[C@@](C)(O)[C@H](O)[C@H]1C | MIC | 20039 (clarithromycin-susceptible) | 3.13 µg/mL |
| O=C1c2cc(F)ccc2-n2c1nc1cc(F)c(F)cc1c2=O | MIC | 19075 | 0.13 µg/mL |
| CCCCO/N=C1\[C@H](C)CC(C)(O)[C@H](O[C@@H]2O[C@H](C)C[C@H](N(C)C)[C@H]2O)[C@@H](C)[C@H](OC2C[C@@](C)(OC)[C@@H](O)[C@H](C)O2)[C@@H](C)C(=O)O[C@H](CC)[C@@](C)(O)[C@H](O)[C@H]1C | MIC | 20092 | >50 µg/mL |
| O=C1c2cc(I)ccc2-n2c1nc1ncccc1c2=O | MIC | 101 | 5 µg/mL |
| CO[C@H]1/C=C/O[C@@]2(C)Oc3c(C)c(O)c4c(O)c(c5c(c4c3C2=O)NC2(CCN(CC(C)C)CC2)N=5)=NC(=O)/C(C)=C\C=C\[C@H](C)[C@H](O)[C@@H](C)[C@@H](O)[C@@H](C)[C@H](OC(C)=O)[C@@H]1C | MIC | 101 | 0.25 µg/mL |
| CCCCCCCCCCCCCCCCO/N=C1\[C@H](C)CC(C)(O)[C@H](O[C@@H]2O[C@H](C)C[C@H](N(C)C)[C@H]2O)[C@@H](C)[C@H](OC2C[C@@](C)(OC)[C@@H](O)[C@H](C)O2)[C@@H](C)C(=O)O[C@H](CC)[C@@](C)(O)[C@H](O)[C@H]1C | MIC | 20039 | >50 µg/mL |

Again, the opening 4 rows:

compound	measure	strain or isolate	value
CN[C@@H]1[C@H](O[C@H]2[C@H](O[C@H]3[C@H](O)[C@@H](O)[C@H](N=C(N)N)[C@@H](O)[C@@H]3N=C(N)N)O[C@@H](C)[C@]2(O)C=O)O[C@@H](CO)[C@H](O)[C@H]1O	MBC	ATCC 35718	8 µg/mL
CC[C@H]1OC(=O)[C@H](C)[C@@H](OC2C[C@@](C)(OC)[C@@H](O)[C@H](C)O2)[C@H](C)[C@@H](O[C@@H]2O[C@H](C)C[C@H](N(C)C)[C@H]2O)C(C)(O)C[C@@H](C)/C(=N\OCCCCCc2ccccc2)[C@H](C)[C@@H](O)[C@]1(C)O	MIC	20039	3.13 µg/mL
COc1cccc2c1[n+]([O-])c1cccc(O)c1[n+]2[O-]	MIC	100	4 µg/mL
O=C1c2cc(F)ccc2-n2c1nc1ccccc1c2=O	MIC	19075	0.25 µg/mL